Pooled drug test results. Numbers come from NIAID ChemDB, via PubChem.

All rows: tests on isolated targets; species: HIV-1; target: Integrase; endpoint: inhibition

Percent inhibition refers to the dose given; in toxicity tests it is the harm to the cells. An empty or dashed field is not shown. Rows are shuffled and stem from different studies.

structure,strain,read by,tested at,value
O=C(O)c1c[nH]c2ccc(S(=O)(=O)NC34CC5CC(CC(C5)C3)C4)cc2c1=O,-,strand transfer,1000 µM,90.93%
C=C(C)[C@H]1CCC[C@]2(C)CC[C@@]3(C)[C@]4(C)CC[C@H]5C(C)(C)[C@@H](O)CC[C@]5(C)[C@H]4CC[C@]3(C)[C@@H]12,-,ELISA / strand transfer,25 µg/mL,18.5%
O=C(O)c1c[nH]c2ccc(S(=O)(=O)NCC34CC5CC(CC(C5)C3)C4)cc2c1=O,-,strand transfer,1000 µM,99.93%
O/N=C1\C(=C\c2ccc3c(c2)OCO3)CCCC1C(NO)c1ccc2c(c1)OCO2,RF,3′ processing,100 µg/mL,37.3%
O=C(O)c1c[nH]c2ccc(S(=O)(=O)N3CCN(c4cccc(Cl)c4)CC3)cc2c1=O,-,strand transfer,1000 µM,76.59%
CCn1cc(C(=O)O)c(=O)c2cc(F)c(N3CCNCC3)nc21,-,AlphaScreen,10 µM,0%
Oc1cc(O)c2c(c1)O[C@H](c1ccc(O)c(O)c1)[C@@H](O)C2,-,3′ processing,100 µM,65%
NS(=O)(=O)c1ccc(Nc2c3ccccc3nc3c(C(=O)NC(CO)(CO)CO)cccc23)cc1,RF,strand transfer,100 µg/mL,40.5%
Cc1cc(C)cc(Cn2cc(/C(O)=C/C(=O)C(=O)O)c3c(O)cccc32)c1,-,AlphaScreen,100 µM,94%
COc1ccc(C[C@H]2CCC(=O)[C@@H]2Cc2ccc(O)c(O)c2)cc1OC,-,strand transfer,100 µM,38%
COC(=O)/C=C/c1ccccc1,-,strand transfer,100 µM,0%
CC(C(=O)O)c1ccc(-c2ccccc2)c(F)c1,-,AlphaScreen,10 µM,3.37%
CC[C@H](C)/C=C(C)/C=C/C(=O)Cc1cc(O)c(C)c(O)c1C=O,-,-,100 µg/mL,0%
O/N=C1\C(=C\c2ccc3c(c2)OCCO3)CCCC1C(NO)c1ccc2c(c1)OCCO2,RF,strand transfer,100 µg/mL,50.3%
O=C(O)c1c[nH]c2ccc(S(=O)(=O)N3CCN(c4ccccc4F)CC3)cc2c1=O,-,strand transfer,1000 µM,73.9%
CC(=O)O[C@H](C)[C@@H]1C2=C(C(=O)C[C@]1(C)O)C(=O)c1c(ccc(-c3ccc4c(c3O)C(=O)C3=C(C4=O)[C@@H]([C@@H](C)OC(C)=O)[C@@](C)(O)CC3=O)c1O)C2=O,RF,3′ processing,100 µg/mL,50%
O=C(O)c1c[nH]c2ccc(S(=O)(=O)N3CCC(Cc4ccccc4)CC3)cc2c1=O,-,strand transfer,1000 µM,73.53%
CC1CCC[C@@H]2[C@]3(CCC[C@@]12C)C[C@H](c1ccoc1)OC3=O,-,ELISA / strand transfer,25 µg/mL,9.1%
Cc1cccc(N2CCN(S(=O)(=O)c3ccc4[nH]cc(C(=O)O)c(=O)c4c3)CC2)c1,-,strand transfer,1000 µM,66.79%
Cc1cc(C2(c3cc(C)c(O)c(CN(CC(=O)O)CC(=O)O)c3)OS(=O)(=O)c3ccccc32)cc(CN(CC(=O)O)CC(=O)O)c1O,RF,strand transfer,100 µg/mL,30.9%
C=C(C)[C@H]1CCC[C@]2(CO)CC[C@@]3(C)[C@]4(C)CC[C@H]5C(C)(C)[C@@H](O)CC[C@]5(C)[C@H]4CC[C@]3(C)[C@@H]12,-,ELISA / strand transfer,25 µg/mL,16.8%
CC(C)n1c(/C=C/[C@@H](O)C[C@@H](O)CC(=O)O)c(-c2ccc(F)cc2)c2ccccc21,-,AlphaScreen,10 µM,15.45%
CN/N=C(/c1nc2ccc([N+](=O)[O-])cc2[nH]c1=O)C(O)c1ccc(C(O)/C(=N/NC)c2nc3ccc([N+](=O)[O-])cc3[nH]c2=O)cc1,RF,strand transfer,100 µg/mL,47.1%

The first 2 rows once more:

structure,strain,read by,tested at,value
O=C(O)c1c[nH]c2ccc(S(=O)(=O)NC34CC5CC(CC(C5)C3)C4)cc2c1=O,-,strand transfer,1000 µM,90.93%
C=C(C)[C@H]1CCC[C@]2(C)CC[C@@]3(C)[C@]4(C)CC[C@H]5C(C)(C)[C@@H](O)CC[C@]5(C)[C@H]4CC[C@]3(C)[C@@H]12,-,ELISA / strand transfer,25 µg/mL,18.5%